Compound potency records, mixed from different reports. Data source: NIAID ChemDB in PubChem.

All rows: cytotoxicity tests; measure: CC50

Blank or dashed fields: not listed here.

SMILES	cell line	read by	result
CCOC(=O)CCCCCOc1cccc(CN(C(=O)c2ccc(-c3cccc(Cl)c3)cc2)C(C)C)c1	RAJI		>13.5 µM
OCC(CO)OCn1c(Br)nc2cc(Cl)c(Cl)cc21	KB		>100 µM
CC(=O)c1cc(NC(=O)c2ccccc2)c(=O)n2c1[nH]c1ccccc12	HEP-2		40 µg/mL
C[C@H]1[C@H](O)[C@@H](CO)O[C@H]1n1cc(Cl)c(=O)[nH]c1=O	RPMI8226		47.4 µg/mL
OCCOCn1cnc2c(Cl)c(Cl)ccc21	KB		>100 µM
FC(F)c1cn(-c2ccnc3cc(Cl)ccc23)nn1	BGM	MTT	≥694 µM
Cc1cn([C@@H]2C[C@@H](N=[N+]=[N-])[C@H](COP(=O)(CN=[N+]=[N-])OC[C@H]3O[C@@H](n4cc(C)c(=O)[nH]c4=O)C[C@@H]3N=[N+]=[N-])O2)c(=O)[nH]c1=O	CEM-SS		24.5 µM
Nc1nc(N)c2nc(CNc3ccc(C(=O)NC(CCCCP(=O)(O)O)C(=O)O)cc3)cnc2n1	L1210/R81		>280 µM
Cc1cn([C@@H]2C[C@@H](N=[N+]=[N-])[C@H](COP(=O)(CI)OC[C@H]3O[C@@H](n4cc(C)c(=O)[nH]c4=O)C[C@@H]3N=[N+]=[N-])O2)c(=O)[nH]c1=O	CEM-SS		39 µM
Nc1nc(Cl)c2ncn(/C=C3/C[C@H]3CO)c2n1	MEF	visual reading	270 µM
CC(C)N(Cc1cccc(OCCCCCC(=O)OC(=O)O)c1)C(=O)c1ccc(-c2cccc(Oc3ccccc3)c2)cc1	RAJI		<13.5 µM
COc1ccc(/C=N/NC(=O)Nc2cccc3nsnc23)cc1O	Cf2Th-CD4/CCR5	luminescence	11.6 µM
Nc1nc(N)c2nc(CNc3ccc(C(=O)NC(CP(=O)(O)O)C(=O)O)cc3)cnc2n1	L1210/R81		390 µM
Nc1nc2cc(Cl)c(Cl)cc2n1COCCO	KB		>100 µM
Nc1nc(N)c2ncn(C3CO[C@H](CO)[C@H]3CO)c2n1	NC-37		79.7 µg/mL
Clc1ccc2c(NCCCNc3nccc(N4CCCC4)n3)ccnc2c1	CRFK cells	MTS / tetrazolium / absorbance	49 µM
CC(C)N(Cc1cccc(OCCCCCC(=O)OC(=O)O)c1)C(=O)c1ccc(-c2cc3ccccc3n2S(=O)(=O)c2ccccc2)cc1	HEK 293		>20 µM
Nc1nc2c(ncn2C2CO[C@H](CO)[C@H]2O)c(=O)[nH]1	NC-37		≥100 µg/mL
C/C(=N\NC(=O)c1ccncc1)c1ccc(Br)cc1	HEL cells	MTT	51 µg/mL
CCCCNC(=S)Nc1ccc2c(c1)Cc1cc(Br)ccc1-2	Ava5-EG(delta4AB)SEAP	MTS	>1 µM
OCc1cn(-c2ccnc3cc(Cl)ccc23)nn1	BGM	MTT	≥777 µM
C=CCCN(Cc1cc(OC)cc(OC)c1)C(=O)CC(C)=O	HepG2		>20 µM
CNc1nc2c(Cl)cc(Cl)cc2n1COCCO	HFF	visual reading	>100 µM
Cc1cn([C@@H]2C[C@@H](N=[N+]=[N-])[C@H](COP(=O)(COc3ccccc3)OC[C@H]3O[C@@H](n4cc(C)c(=O)[nH]c4=O)C[C@@H]3N=[N+]=[N-])O2)c(=O)[nH]c1=O	CEM-SS		37 µM
O=C(N/N=C/c1ccccc1)Nc1cccc2nsnc12	Cf2Th-CD4/CCR5	luminescence	75.2 µM
C[C@H]1[C@H](O)[C@@H](CO)O[C@H]1n1cc(I)c(=O)[nH]c1=O	RPMI8226		74.5 µg/mL
Nc1ccn(C2CO[C@H](CO)[C@H]2O)c(=O)n1	NC-37		38.82 µg/mL
O=c1[nH]c(=O)n([C@@H]2O[C@H](CO)[C@@H](O)[C@@H]2F)cc1I	RPMI8226		7.64 µg/mL
CC(C)N(Cc1cccc(OCCCCCC(=O)OC(=O)O)c1)C(=O)c1ccc(-c2ccc3cc[nH]c3c2)cc1	BJ		>20 µM
Cc1cn([C@@H]2CC[C@H](COC(=O)CCCCCCCCCCC(=O)OC[C@H]3O[C@@H](n4cc(C)c(=O)[nH]c4=O)C[C@@H]3N=[N+]=[N-])O2)c(=O)[nH]c1=O	CBMC		>1 µM
CC(C)(CCOc1ccc(-c2ccccc2)cc1)CCOc1cccc(NC(N)=S)c1	Ava5-EG(delta4AB)SEAP	MTS	>1 µM
Nc1nc(N)c2ncn(C3CO[C@H](CO)[C@H]3O)c2n1	NC-37		87.63 µg/mL
CC(=O)N1c2ccccc2NC2=C(C(=O)CC(C)(C)C2)C1c1ccc(Cl)cc1Cl	MT4-LTR-LUC		>32 µM
Cc1cc(/C=N/NC(=O)Nc2cccc3nsnc23)cc(C)c1O	Cf2Th-CD4/CCR5	luminescence	0.1 µM
CNC(=S)Nc1ccc2c(c1)Cc1cc(Br)ccc1-2	Ava5-EG(delta4AB)SEAP	MTS	>1 µM
C/C(=N\NC(=O)c1ccncc1)c1ccc([N+](=O)[O-])cc1	HEL cells	MTT	54 µg/mL
Clc1ccc2c(NCCCCCCCCNc3ccnc(Cl)n3)ccnc2c1	CRFK cells	MTS / tetrazolium / absorbance	8 µM
CCOC(=O)c1cn(-c2ccnc3cc(Cl)ccc23)nn1	BGM	MTT	≥662 µM
C[C@H]1[C@H](O)[C@@H](CO)O[C@H]1n1cc(Cl)c(N)nc1=O	RPMI8226		>100 µg/mL
COc1ccc(/C(C)=N/NC(=O)c2ccncc2)c(OC)c1	HEL cell	MTT	10 µg/mL
CCCCCCCCNC(=S)Nc1cccc(OCCCCCc2ccccc2)c1	Ava5-EG(delta4AB)SEAP	MTS	>1 µM
O=C(N/N=C/c1cccc(O)c1)Nc1cccc2nsnc12	Cf2Th-CD4/CCR5	luminescence	46.2 µM
CCOC(=O)c1cc(CC(=O)c2ccccc2)c(=O)n2c1sc1ccccc12	HEF		40 µg/mL
Nc1nc2cc(Cl)c(Cl)cc2n1COC(CO)CO	HFF	visual reading	>100 µM
CC(C)N(Cc1cccc(OCCCCCC(=O)OC(=O)O)c1)C(=O)c1ccc(-c2ccncc2)cc1	RAJI		>20 µM
O=C(NCc1c(F)cc(F)cc1F)c1cn2c(c(O)c1=O)C(=O)N1[C@H]3CC[C@H](C3)O[C@@H]1C2	MAGIC-5A	luminescence	>10 µM
CCOC(=O)c1cc(C#N)c2[nH]c3ccccc3n2c1=O	HEP-2		>100 µg/mL
NC(=S)Nc1cccc(OCCCCCOc2ccccn2)c1	Ava5-EG(delta4AB)SEAP	MTS	>1 µM
O=C(N/N=C/c1cccc(O)c1O)Nc1cccc2nsnc12	Cf2Th-CD4/CCR5	luminescence	50.5 µM
Clc1ccc2c(-n3cc(COC4CCCCO4)nn3)ccnc2c1	BGM	MTT	≥581 µM
NC(=S)Nc1cccc(OCCCCCOc2ccccc2)c1	Ava5-EG(delta4AB)SEAP	MTS	>1 µM
Cc1cn([C@@H]2C[C@@H](N=[N+]=[N-])[C@H](COP(=O)(CF)OC[C@H]3O[C@@H](n4cc(C)c(=O)[nH]c4=O)C[C@@H]3N=[N+]=[N-])O2)c(=O)[nH]c1=O	CEM-SS		29 µM
C[C@H]1[C@H](O)[C@@H](CO)O[C@H]1n1cc(I)c(N)nc1=O	RPMI8226		187.6 µg/mL

Repeating the first 7 entries:

SMILES | cell line | read by | result
CCOC(=O)CCCCCOc1cccc(CN(C(=O)c2ccc(-c3cccc(Cl)c3)cc2)C(C)C)c1 | RAJI |  | >13.5 µM
OCC(CO)OCn1c(Br)nc2cc(Cl)c(Cl)cc21 | KB |  | >100 µM
CC(=O)c1cc(NC(=O)c2ccccc2)c(=O)n2c1[nH]c1ccccc12 | HEP-2 |  | 40 µg/mL
C[C@H]1[C@H](O)[C@@H](CO)O[C@H]1n1cc(Cl)c(=O)[nH]c1=O | RPMI8226 |  | 47.4 µg/mL
OCCOCn1cnc2c(Cl)c(Cl)ccc21 | KB |  | >100 µM
FC(F)c1cn(-c2ccnc3cc(Cl)ccc23)nn1 | BGM | MTT | ≥694 µM
Cc1cn([C@@H]2C[C@@H](N=[N+]=[N-])[C@H](COP(=O)(CN=[N+]=[N-])OC[C@H]3O[C@@H](n4cc(C)c(=O)[nH]c4=O)C[C@@H]3N=[N+]=[N-])O2)c(=O)[nH]c1=O | CEM-SS |  | 24.5 µM

Conditions beyond the fields shown may differ between rows. CCn is the concentration with n% toxicity to the cells.